Measured values taken from ChEMBL document CHEMBL3244238, “In search of anti-Trypanosoma cruzi drugs: new leads from a mouse model” (J Med Chem, 1977).

Assays:
Assay type in all cases: functional
Trypanosoma cruzi [1] = assay: Antitrypanosomal activity against Trypanosoma cruzi infected in albino CF1 mouse assessed as reduction in number of parasites in blood at 52 mg/kg/day, intramuscular treatment started on day 10 of infection up to day 14
Method in brief: (§1)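 Male CF1 albino mice (4-10 weeks) infected intraperitoneally with 50 000 Brazil-strain T. cruzi trypomastigotes in Hanks' balanced salt solution, pH 7.2. Dosing was intramuscular, twice daily, from day 10 to day 13 afternoon or day 14 morning. Vehicle was 0.1% Tween 80 + 0.5% hydroxyethylcellulose. Seven mice per dose; dose given as total salt weight. Parasites/mL blood counted from day-14 smears; % suppression versus vehicle controls.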

Trypanosoma cruzi [2] = assay: Antitrypanosomal activity against Trypanosoma cruzi infected in albino CF1 mouse assessed as reduction in number of parasites in blood at 104 mg/kg/day, intramuscular treatment started on day 10 of infection up to day 14; method in brief: as §1
Trypanosoma cruzi [3] = assay: Antitrypanosomal activity against Trypanosoma cruzi infected in albino CF1 mouse assessed as reduction in number of parasites in blood at 13 mg/kg/day, intramuscular treatment started on day 10 of infection up to day 14; method in brief: as §1

Measured: inhibition

O=[As]c1ccc2[nH]c(=O)[nH]c2c1 (stereo not drawn)
inactive: all assays above

Active and inactive are the calls of the source.
